US20240059758A1, “Therapeutic antibodies with neutralizing activity against sars-cov-2 glycoprotein s” (CORAT THERAPEUTICS, published 2024)

B1: STE90-C11 (IgG) (antibody, V domains shown)
VH: QVQLVESGGGLVQPGGSLRLSCAASGLTVSSNYMSWVRQAPGKGLEWVSVIYSGGSTYYADSVKGRFTISRDDSKNTLYLQMNSLRAEDTAVYYCARDVADAFDIWGQGTMVTVSS
VL: DIVMTQSPSFLSASVGDRVTITCRASQGISSYLAWYQQKPGKAPKLLIYAASTLQSGVPSRFSGSGSGTEFTLTISSLQPEDFATYYCQQLNSYPPFTFGPGTKVDIK
B2: hybrid antibody: VL YU536-D04 (SEQ ID No. 362) with VH STE90-C11 (SEQ ID No. 1305) (antibody, V domains shown)
VH: QVQLVESGGGLVQPGGSLRLSCAASGLTVSSNYMSWVRQAPGKGLEWVSVIYSGGSTYYADSVKGRFTISRDDSKNTLYLQMNSLRAEDTAVYYCARDVADAFDIWGQGTMVTVSS
VL: DIQLTQSPSSLSASVGDRVTITCRASQGISSYLAWYQQKPGKAPKLLIYAASTLQSGVPSRFSGSGSGTDFTLTISSLQPEDFATYYCQQLNSYPITFGQGTKLEIK
B3: hybrid antibody: VL YU536-D04 (SEQ ID No. 362) with VH YU537-H11 (SEQ ID No. 404) (antibody, V domains shown)
VH: EVQLLESGGGLIQPGGSLRLSCAASGLTVSSNYMSWVRQAPGKGLEWVSVIYSGGSTYYADSVKGRFTISRDNSKNALYLQMNSLRAEDTAVYYCARGESGSPYGMDVWGQGTLVTVSS
VL: DIQLTQSPSSLSASVGDRVTITCRASQGISSYLAWYQQKPGKAPKLLIYAASTLQSGVPSRFSGSGSGTDFTLTISSLQPEDFATYYCQQLNSYPITFGQGTKLEIK
B4: hybrid antibody: VL STE90-C11 (SEQ ID No. 1309) with VH YU536-D04 (SEQ ID No. 364) (antibody, V domains shown)
VH: QVQLVQSGGGLVQPGGSLRLSCAASGLTVSSNYMSWVRQAPGKGLEWVSVIYSGGSTYYADSVKGRFIISRDNSKNTLYLQMNSLRAEDTAVYYCARDLVVMGLDVWGKGTLVTVSS
VL: DIVMTQSPSFLSASVGDRVTITCRASQGISSYLAWYQQKPGKAPKLLIYAASTLQSGVPSRFSGSGSGTEFTLTISSLQPEDFATYYCQQLNSYPPFTFGPGTKVDIK
B5: hybrid antibody: VL YU537-H11 (SEQ ID No. 402) with VH YU536-D04 (SEQ ID No. 364) (antibody, V domains shown)
VH: QVQLVQSGGGLVQPGGSLRLSCAASGLTVSSNYMSWVRQAPGKGLEWVSVIYSGGSTYYADSVKGRFIISRDNSKNTLYLQMNSLRAEDTAVYYCARDLVVMGLDVWGKGTLVTVSS
VL: QSVLTQPPSVSAAPGQKVTISCSGSSSNIGNNYVSWYQQLPGTAPKLLIYDTNKRPSGIPDRFSGSKSGTSATLGITGLQTGDEADYYCATWDSSLSVGVFGGGTKLTVL
B6: hybrid antibody: VL STE90-C11 (SEQ ID No. 1309) with VH YU537-H11 (SEQ ID No. 404) (antibody, V domains shown)
VH: EVQLLESGGGLIQPGGSLRLSCAASGLTVSSNYMSWVRQAPGKGLEWVSVIYSGGSTYYADSVKGRFTISRDNSKNALYLQMNSLRAEDTAVYYCARGESGSPYGMDVWGQGTLVTVSS
VL: DIVMTQSPSFLSASVGDRVTITCRASQGISSYLAWYQQKPGKAPKLLIYAASTLQSGVPSRFSGSGSGTEFTLTISSLQPEDFATYYCQQLNSYPPFTFGPGTKVDIK
B7: hybrid antibody: VL YU537-H11 (SEQ ID No. 402) with VH STE90-C11 (SEQ ID No. 1305) (antibody, V domains shown)
VH: QVQLVESGGGLVQPGGSLRLSCAASGLTVSSNYMSWVRQAPGKGLEWVSVIYSGGSTYYADSVKGRFTISRDDSKNTLYLQMNSLRAEDTAVYYCARDVADAFDIWGQGTMVTVSS
VL: QSVLTQPPSVSAAPGQKVTISCSGSSSNIGNNYVSWYQQLPGTAPKLLIYDTNKRPSGIPDRFSGSKSGTSATLGITGLQTGDEADYYCATWDSSLSVGVFGGGTKLTVL

molecular target: BSA (UniProt P02769 25-607); assay: RBD-binding quality as compared to STE90-C11; […]

Binder | binding result
B1 | no binding
B2 | no binding
B3 | no binding
B4 | no binding
B5 | no binding
B6 | no binding
B7 | no binding
